Measured values from several laboratories, pooled; numbers as filed in NIAID ChemDB.

Common to all: target-level tests; species: Hepatitis C virus

a–b is a range or a potency band. Blank or dashed fields: not listed here. ICn: concentration for n% inhibition. Percent inhibition refers to the dose given; in toxicity tests it is the harm to the cells. Rows are shuffled and stem from different studies.

structure	tested at	read by	strain	target	read-out	value
C=C/C=C(Cl)\C=C/CC[C@H](NC(=O)[C@H](CCC(=O)O)NC(=O)[C@@H](N)CC(=O)O)C(=O)N[C@@H](CCC(=O)O)C(=O)N[C@@H](CC1CCCCC1)C(=O)N[C@@H](CS)C(=O)O				NS3 protease	IC50	0.3 µM
Cc1ccccc1S(=O)(=O)Nc1cc(-c2ccc(Cl)c(F)c2)sc1C(=O)O				NS3 ATPase	IC50	<5 µM
O=c1cc(-c2ccccc2)oc2ccc(O)cc12	20 µM	SYBR Green	J4	Replicase complex	inhibition	18.5%
O=C(N[C@H](C(=O)N1C[C@H](OCc2cccc3ccccc23)C[C@H]1C(=O)NC1(C(=O)O)CC1)C1CCCCC1)C(CC1CCCCC1)CC1CCCCC1				HCV NS3/NS4A protease	IC50	29.5 µM
CC1CN(C(=O)OCc2ccccc2)CCC1C(=O)N(C(=O)c1ccc(Cl)cc1Cl)c1cc(-c2ccccc2)sc1C(=O)O				NS3 ATPase	IC50	<5 µM
CC(=O)N[C@@H](CC(=O)O)C(=O)N[C@H](C(=O)N[C@H](C(=O)N[C@@H](CCC(=O)O)C(=O)N[C@@H](CC1CCCCC1)C(=O)N[C@@H](CS)C(=O)C(=O)O)C(c1ccccc1)c1ccccc1)c1ccccc1				NS3/NS4A serine protease	Ki	160 µM
N[C@@H](CC(=O)O)C(=O)N[C@@H](CCC(=O)O)C(=O)N[C@@H](Cc1cccs1)C(=O)N[C@@H](CCC(=O)O)C(=O)N[C@@H](CC1CCCCC1)C(=O)N[C@@H](CS)C(=O)O				NS3 protease	IC50	0.87 µM
O=C1NC(=S)S/C1=C/c1ccc(-c2cc(C(F)(F)F)ccc2Cl)o1				NS5B polymerase	IC50	≤30 µM
O=C(O)[C@H](Cc1ccc(O)cc1)N(Cc1ccc(-c2cc3ccccc3o2)cc1)C(=O)c1ccc(Cl)cc1Cl				RNA-dependent RNA polymerase	IC50	<5 µM
Cc1ccc(S(=O)(=O)NN2C(=O)/C(=C\c3ccc(Cl)c(Cl)c3)SC2=S)cc1				NS5B polymerase	IC50	≤30 µM
C=C[C@H]1CC1(NC(=O)[C@@H]1C[C@@H](Oc2cc(CN(C)c3ccccc3)nc3ccccc23)CN1C(=O)[C@@H](NC(=O)OC(C)(C)C)C(C)(C)C)C(=O)O				HCV NS3/NS4A protease	IC50	3 µM
CSCC[C@H](NC(=O)[C@H](CCC(=O)O)NC(=O)[C@@H](N)CC(=O)O)C(=O)N[C@@H](CCC(=O)O)C(=O)N[C@@H](CCC(=O)O)C(=O)NCCS				NS3 protease	IC50	>64 µM
O=C1c2cc([N+](=O)[O-])ccc2-n2c1nc1ncccc1c2=O				NS5B polymerase	IC50	0.03 µM
CC[C@H](C)[C@H](NC(=O)[C@@H](NC(C)=O)C(c1ccccc1)c1ccccc1)C(=O)N[C@@H](CC1CCCCC1)C(=O)N[C@@H](CS)C(=O)O				Full-length NS3	IC50	3.507 µM
CCOC(=O)c1ccccc1-c1cc(NS(=O)(=O)c2ccccc2C)c(C(=O)O)s1				NS3 ATPase	IC50	5–20 µM
C=C[C@H]1CC1(NC(=O)[C@@H]1C[C@@H](Oc2cc(N3CCN(C)CC3)nc3ccccc23)CN1C(=O)[C@@H](NC(=O)OC(C)(C)C)C(C)(C)C)C(=O)O				HCV NS3/NS4A protease	IC50	0.72 µM
CN(C)CCNc1cc(C(=O)Nc2ccc3nc[nH]c3c2)c(F)cc1F	0.1 µg/mL			NS5B polymerase	inhibition	46%
CC1CCC(C)(C(=O)N(c2cc(-c3ccccc3)sc2C(=O)O)C(C)C)CC1				NS3 ATPase	IC50	<5 µM
O=c1c(O)c(-c2ccccc2O)oc2cc(O)cc(O)c12	20 µM	SYBR Green	J4	Replicase complex	inhibition	70.5%
Cc1ccc(C(=O)N2CCOCC2)c(Nc2ccc3cn[nH]c3c2)n1	0.1 µg/mL			NS5B polymerase	inhibition	54%
O=C1/C(=C\c2ccc(Cl)c(Cl)c2)SC(=S)N1NS(=O)(=O)c1ccc(Cl)cc1				NS5B polymerase	IC50	≤30 µM
O=C(O)[C@H](Cc1ccccc1)N(Cc1ccc(-c2cc3ccccc3o2)s1)C(=O)c1ccc(Cl)cc1Cl				RNA-dependent RNA polymerase	IC50	<5 µM
CC(=O)N[C@@H](CCC(=O)O)C(=O)N[C@H](C(=O)N[C@@H](CCC(=O)O)C(=O)N[C@@H](CC1CCCCC1)C(=O)N[C@@H](CS)C(=O)O)C(c1ccccc1)c1ccccc1				HCV NS3 protease	IC50	1.4 µM
O=C(O)c1sc(-c2ccccc2)cc1N(C(=O)c1ccc(Cl)cc1Cl)C1CCNCC1				NS3 ATPase	IC50	5–20 µM
CC[C@H](C)[C@H](NC(=O)[C@@H](NC(=O)[C@@H](N)CCC(=O)O)C(c1ccccc1)c1ccccc1)C(=O)N[C@@H](CC1CCCCC1)C(=O)N[C@@H](CS)C(=O)O				NS3 protease	IC50	2.5 µM
C=C[C@H]1CC1(NC(=O)[C@@H]1C[C@@H](Oc2cc(-c3ccccc3)nc3cc(OC)ccc23)CN1C(=O)[C@@H](NC(=O)N[C@@H](C)C(N)=O)C(C)(C)C)C(=O)O				HCV NS3/NS4A protease	IC50	0.11 µM
CC(=O)N[C@@H](CC(=O)O)C(=O)N[C@H](CC(C(=O)O)C(=O)O)C(=O)N[C@H](C(=O)N[C@@H](CCC(=O)O)C(=O)N[C@H](C(=O)N[C@@H](CS)C(=O)C(=O)O)C(c1ccccc1)c1ccccc1)C(c1ccccc1)c1ccccc1				NS3/NS4A serine protease	Ki	0.00004 µM
O=C(O)c1ccc(-c2ccc(F)c(Cl)c2)c(COc2ccc(-c3nc4cc(-c5nn[nH]n5)ccc4n3C3CCCCC3)c(F)c2)c1				NS5B polymerase	IC50	0.04 µM
O=C(O)[C@H](Cc1ccccc1)N(Cc1ccc2ccccc2c1)c1ccc(Cl)cc1Cl				RNA-dependent RNA polymerase	IC50	<5 µM
O=C1NC(=S)S/C1=C/c1ccc([N+](=O)[O-])cc1				NS5B polymerase	IC50	≤30 µM
CC(=O)N[C@@H](CC(=O)O)C(=O)N[C@H](CC(C(=O)O)C(=O)O)C(=O)N[C@@H](Cc1ccccc1)C(=O)N[C@@H](CCC(=O)O)C(=O)N[C@@H](CC1CCCCC1)C(=O)N[C@@H](CS)C(=O)C(=O)O				NS3/NS4A serine protease	Ki	0.00009 µM
O=c1c(O)c(-c2ccc(O)c(O)c2)oc2cc(O)c(O)c(O)c12	20 µM	SYBR Green	J4	Replicase complex	inhibition	85.6%
Cc1cc(Cl)ccc1C(=O)N(Cc1cccc(-c2cc3ccccc3o2)c1)C(Cc1ccccc1)C(=O)O				RNA-dependent RNA polymerase	IC50	<5 µM
O=C1c2ccc(O)cc2O[C@H](c2cc(O)c(O)c(O)c2)[C@H]1O	20 µM	SYBR Green	J4	Replicase complex	inhibition	11%
C=CCN(C(=O)C1CCC1)c1cc(-c2ccccc2)sc1C(=O)O				NS3 ATPase	IC50	>20 µM
C=CC1CC1(NC(=O)[C@@H]1C[C@@H](Oc2cc(-c3ccccc3)nc3cc(OC)ccc23)CN1C(=O)[C@@H](NC(=O)OC(C)(C)C)C(C)(C)C)C(=O)O				HCV NS3/NS4A protease	IC50	0.082 µM
CSCC[C@H](NC(=O)[C@H](CCC(=O)O)NC(=O)[C@@H](N)CC(=O)O)C(=O)N[C@@H](CCC(=O)O)C(=O)N[C@@H](CCC(=O)O)C(=O)N(C#N)[C@@H](C)C(=O)O				NS3 protease	IC50	19 µM
CC(=O)N[C@H](C(=O)N1C[C@H](Oc2cc(-c3ccccc3)nc3ccc([N+](=O)[O-])cc23)C[C@H]1C(=O)NC1(C(=O)O)CC1)C1CCCCC1				HCV NS3/NS4A protease	IC50	6.3 µM
CC(=O)N[C@@H](CC(=O)O)C(=O)N[C@H](CC(C(=O)O)C(=O)O)C(=O)N[C@H](C(=O)N[C@@H](CCC(=O)O)C(=O)N[C@H](C(=O)N[C@@H](CS)C(=O)C(=O)O)C(C)C)C(c1ccccc1)c1ccccc1				NS3/NS4A serine protease	Ki	0.0002 µM
CC[C@H](C)[C@H](NC(=O)[C@@H](N)C(c1ccccc1)c1ccccc1)C(=O)N[C@@H](CC1CCCCC1)C(=O)N[C@@H](CS)C(=O)O				NS3 protease	IC50	100 µM
C=CC(=O)NCC(=O)N1C[C@H](Oc2nccc3ccc(Br)cc23)C[C@H]1C(=O)N[C@]1(C(=O)NS(=O)(=O)C2CC2)C[C@H]1C=C		FRET	1b A156S	Nonstructural protein 3/4A	IC50	0.0096 µM
CSCC[C@H](NC(=O)[C@H](CCC(=O)O)NC(=O)[C@H](CC(=O)O)NC(C)=O)C(=O)N[C@@H](CCC(=O)O)C(=O)N[C@@H](CC1CCCCC1)C(=O)N[C@@H](CS)C(=O)O				HCV NS3 protease	Ki	0.18 µM
CC(=O)Oc1cc(C)ccc1C(=O)N(c1cc(-c2ccccc2)sc1C(=O)O)C(C)C				NS3 ATPase	IC50	5–20 µM
CC(=O)N[C@@H](CC(=O)O)C(=O)N[C@H](CC(C(=O)O)C(=O)O)C(=O)N[C@@H](Cc1cccc2ccccc12)C(=O)N[C@@H](CCC(=O)O)C(=O)N[C@@H](CC1CCCCC1)C(=O)N[C@@H](CS)C(=O)C(=O)O				NS3/NS4A serine protease	Ki	0.00007 µM